In patent US20160347827A1 (HENRY M JACKSON FOUNDATION FOR THE ADVANCEMENT OF MILITARY …, published 2016):

Target: soluble F glycoprotein (sF)
Assay: SPR, Biacore 3000, mAb captured by anti-Fc on CM5, sF in solution

B1: murine 5B3 monoclonal antibody (antibody, V domains shown)
VH: EVQLVESGGGLVKPGGSLKLSCAASGFTFSSYDMSWVRQTPEKRLEWVAMISSGGSYSYYPDSVKGRFTISRDNAKNTLYLQMSSLRSEDTAMYYCARQGDYAWFAYWGQGTLVTVS
VL: DIQMTQSPASQSASLGESVTITCLASQTIGTWLAWYQQKPGKSPQLLIYAATSLADGVPSRFSGSGSGTKFSFKISSLQAEDFVSYYCQQFYSTPFTFGGGTKLEIKR
  koff: 9.2e-05 s⁻¹
  kon: 34000 M⁻¹ s⁻¹
